A mixed list of measured activities; the numbers were collected in NIAID ChemDB.

All rows: toxicity to cultured cells; cell line: HUMAN SPERM; read-out: CC50

CCn: concentration that lowers growth or viability of the cells by n%. Lines come from different laboratories, so protocols vary.

COC(=O)[C@@H]1CCCN1P(=O)(OC[C@H]1O[C@@H](N2C(=O)NC(=O)C(C)(Br)C2OC)C[C@@H]1N=[N+]=[N-])Oc1ccc(Br)cc1 ; result: >300 µM
Fc1ccccc1CCNC(=S)Nc1ccc(Br)cn1 ; result: 70 µM
COC(=O)[C@H](C)NP(=O)(OC[C@H]1O[C@@H](n2cc(C)c(=O)[nH]c2=O)C[C@@H]1N=[N+]=[N-])Oc1ccc(Br)cc1 ; result: >300 µM
S=C(NCCC1=CCCCC1)Nc1ccc(Br)cn1 ; result: 42 µM
Fc1ccccc1CCNC(=S)Nc1ccc(Br)cn1 ; result: 147 µM
COC(=O)[C@H](Cc1ccccc1)NP(=O)(OC[C@H]1O[C@@H](N2C(=O)NC(=O)C(C)(Br)C2OC)C[C@@H]1N=[N+]=[N-])Oc1ccc(Br)cc1 ; result: 300 µM
CCCCCCCCCc1ccc(OCCOCCOCCOCCOCCOCCOCCOCCOCCO)cc1 ; result: 86 µM
Fc1cccc(CCNC(=S)Nc2ccc(C(F)(F)F)cn2)c1 ; result: >500 µM
COC(=O)[C@H](C)NP(=O)(OC[C@H]1O[C@@H](N2C(=O)NC(=O)C(C)(Br)C2OC)C[C@@H]1N=[N+]=[N-])Oc1ccc(Br)cc1 ; result: >6 µM
CC1(C)C2CCC(COCCNC(=S)Nc3ccc(Br)cn3)C1C2 ; result: >500 µM
COc1ccc(OC)c(CCNC(=S)Nc2ccc(Br)cn2)c1 ; result: >500 µM
COC(=O)[C@H](C)NP(=O)(OC[C@H]1O[C@@H](N2C(=O)NC(=O)C(C)(Br)C2OC)C[C@@H]1N=[N+]=[N-])Oc1ccc(Br)cc1 ; result: 6 µM
COc1cccc(CCNC(=S)Nc2ccc(Br)cn2)c1 ; result: >500 µM
COC(=O)[C@H](C)NP(=O)(OC[C@H]1O[C@@H](n2cc(C)c(=O)[nH]c2=O)C[C@@H]1N=[N+]=[N-])Oc1ccccc1 ; result: >300 µM
COC(=O)[C@H](C)NP(=O)(OC[C@@H]1CC[C@H](N2C(=O)NC(=O)C(C)(Br)C2OC)O1)Oc1ccccc1 ; result: 42 µM
S=C(NCCN1CCCCC1)Nc1ccc(Br)cn1 ; result: >500 µM
COC1N(C2CC(N=[N+]=[N-])C(CO)O2)C(=O)NC(=O)C1(C)Br ; result: 104 µM
FC(F)(F)c1ccc(NC(=S)NCCN2CCCCC2)nc1 ; result: 131 µM
COC(=O)[C@H](C)NP(=O)(OC[C@H]1O[C@@H](N2C(=O)NC(=O)C(C)(Br)C2OC)C[C@@H]1N=[N+]=[N-])Oc1ccc(OC)cc1 ; result: 24 µM
COc1ccc(OC)c(CCNC(=S)Nc2ccc(Br)cn2)c1 ; result: >300 µM

Again, the opening 3 rows:

compound | result
COC(=O)[C@@H]1CCCN1P(=O)(OC[C@H]1O[C@@H](N2C(=O)NC(=O)C(C)(Br)C2OC)C[C@@H]1N=[N+]=[N-])Oc1ccc(Br)cc1 | >300 µM
Fc1ccccc1CCNC(=S)Nc1ccc(Br)cn1 | 70 µM
COC(=O)[C@H](C)NP(=O)(OC[C@H]1O[C@@H](n2cc(C)c(=O)[nH]c2=O)C[C@@H]1N=[N+]=[N-])Oc1ccc(Br)cc1 | >300 µM